Experiments:
[1] = molecular target: α1β1γδ nAChR (Mus musculus, UniProt P02716+P04756+P04760+P09690); test: Two-electrode voltage clamp of ACh currents, embryonic muscle-type α1β1γδ nAChRs expressed in Xenopus oocytes; type: cell-based; settings: late current
[2] = test system: human muscle-type nAChRs in TE671 cells; settings: −100 mV ref 8; cited from earlier work

Chains of the proteins cited; added tags and fusions are not shown. Lines headed by an entry give the natural chain unless they say otherwise; changes in a name come on top. Residues count along the entry.
UniProt P02716, 25-520 limits assumed: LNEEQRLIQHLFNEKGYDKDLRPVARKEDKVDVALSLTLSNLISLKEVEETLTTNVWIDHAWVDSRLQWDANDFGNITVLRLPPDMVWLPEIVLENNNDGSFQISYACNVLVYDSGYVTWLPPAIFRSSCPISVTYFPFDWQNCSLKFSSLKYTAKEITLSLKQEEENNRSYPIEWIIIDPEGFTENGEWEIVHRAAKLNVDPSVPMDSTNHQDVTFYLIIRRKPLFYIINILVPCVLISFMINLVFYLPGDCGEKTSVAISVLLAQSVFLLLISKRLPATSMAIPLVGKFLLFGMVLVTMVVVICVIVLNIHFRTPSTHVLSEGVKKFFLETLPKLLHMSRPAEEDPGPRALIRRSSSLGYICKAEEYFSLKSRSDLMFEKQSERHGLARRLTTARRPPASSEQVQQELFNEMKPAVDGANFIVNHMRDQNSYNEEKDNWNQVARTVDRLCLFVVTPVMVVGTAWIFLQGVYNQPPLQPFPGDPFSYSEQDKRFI
UniProt P04760, 23-519 limits assumed: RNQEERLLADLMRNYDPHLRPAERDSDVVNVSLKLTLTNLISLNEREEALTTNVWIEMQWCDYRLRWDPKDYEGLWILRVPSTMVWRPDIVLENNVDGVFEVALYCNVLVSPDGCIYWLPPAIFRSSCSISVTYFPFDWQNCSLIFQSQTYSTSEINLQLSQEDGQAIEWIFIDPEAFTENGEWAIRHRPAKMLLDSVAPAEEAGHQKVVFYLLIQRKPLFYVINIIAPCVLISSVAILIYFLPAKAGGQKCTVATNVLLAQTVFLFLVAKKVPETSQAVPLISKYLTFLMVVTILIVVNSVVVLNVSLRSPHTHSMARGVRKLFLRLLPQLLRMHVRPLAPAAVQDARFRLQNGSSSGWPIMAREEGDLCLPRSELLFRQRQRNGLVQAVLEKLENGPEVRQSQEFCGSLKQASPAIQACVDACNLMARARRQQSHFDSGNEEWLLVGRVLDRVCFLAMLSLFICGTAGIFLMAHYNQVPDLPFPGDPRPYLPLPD
UniProt P09690, 24-501 limits assumed: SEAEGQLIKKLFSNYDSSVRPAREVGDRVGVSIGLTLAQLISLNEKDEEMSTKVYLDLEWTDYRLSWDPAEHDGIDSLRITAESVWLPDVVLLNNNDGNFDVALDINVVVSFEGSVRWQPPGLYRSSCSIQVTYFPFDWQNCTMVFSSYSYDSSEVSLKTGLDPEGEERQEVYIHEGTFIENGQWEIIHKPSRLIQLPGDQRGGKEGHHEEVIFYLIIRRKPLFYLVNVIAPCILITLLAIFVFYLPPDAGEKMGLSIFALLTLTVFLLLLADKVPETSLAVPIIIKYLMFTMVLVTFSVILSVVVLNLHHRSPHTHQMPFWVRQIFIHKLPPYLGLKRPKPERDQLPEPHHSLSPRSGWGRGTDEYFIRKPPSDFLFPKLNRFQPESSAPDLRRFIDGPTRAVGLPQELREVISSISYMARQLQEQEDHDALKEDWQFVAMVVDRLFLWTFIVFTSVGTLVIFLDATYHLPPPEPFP

SMILES: CCCC(=O)N[C@@H](Cc1ccc(O)cc1)C(=O)NCCCCCCCCCCCCN [PhTX-12]
- selectivity over PhTX-343 ([1]; VH −60 mV): 257 fold
- selectivity over PhTX-343 ([1]; VH −100 mV): 34 fold
- selectivity (more potent) over PhTX-343 ([1]; −80 mV): 119 fold
- selectivity over PhTX-343 [2]: 22 fold

Reference: PMC5128878 (Scientific Reports, 2016)
